Pooled drug test results. Numbers come from NIAID ChemDB, via PubChem.

Common to all: enzyme or target tests; agent: HIV-1; protein: Reverse transcriptase; measure: inhibition

Lines come from different laboratories, so protocols vary.

structure	strain	changes	method	tested at	result
Cc1ccc(CN2C(=O)CSC2c2c(F)cccc2Cl)o1			ELISA	10 µg/mL	57.69%
COC(=O)C(N)CC(=O)COC(=O)[C@H]1O[C@H](O[C@H]2CC[C@]3(C)[C@H]4C(=O)C=C5[C@@H]6C[C@@](C)(C(=O)O)CC[C@]6(C)CC[C@@]5(C)[C@]4(C)CC[C@H]3C2(C)C)[C@H](O[C@@H]2O[C@H](C(=O)O)[C@@H](O)[C@H](O)[C@H]2O)[C@@H](O)[C@@H]1O.S				250 µg/mL	72.53%
COc1cc(O)cc(OC)c1C(=O)c1ccc(O)c(O)c1			RT activity / radiometric	200 µg/mL	53.45%
Cc1cn([C@H]2CC[C@@H](COP(=O)(O)OP(=O)(O)OP(=O)(O)O)O2)c(=O)[nH]c1=O			ELISA	100 µM	100%
Cc1cc(O)c2c(c1F)C(=O)C=CC2=O			RT activity	100 µg/mL	100%
CCN1c2ncccc2C=Cc2cccnc21		RT-Y181C	nucleotide incorporation	1 µM	41%
C=CC(C)(C)c1c2c(c(O)c3c(=O)c4ccc(OC)c(O)c4oc13)C=CC(C)(C)O2			RT activity / radiometric	200 µg/mL	44.41%
CC(=O)c1ccc(C)cc1NC(C(N)=O)c1c(Cl)cccc1Cl				4 µg/mL	59.2%
CCc1c(Sc2ccccn2)n(COCc2ccccc2)c(=O)[nH]c1=O	WT			50 µM	95%
CC1(C)C=Cc2c(cc(O)c3c(=O)c4cccc(O)c4oc23)O1			RT activity / radiometric	200 µg/mL	30.17%
Cc1cc(O)c2c(c1)C(O)C=CC2=O			RT activity	100 µg/mL	17%
C[C@@H]1[C@H](O)[C@@H](C)/C=C/C=C/C=C/C=C/C=C/C=C/C=C/[C@H](O[C@@H]2O[C@H](C)[C@@H](O)[C@H](N)[C@@H]2O)CC2O[C@](O)(CC(O)C(O)CCC(O)CC(O)CC(O)CC(=O)O[C@H]1C)CC(O)C2C(=O)O.O=S(=O)(O)O			RT activity	200 µg/mL	80%
COc1cc(/C=C/C(=O)CC(=O)/C=C/c2ccc(O)c(OC)c2)ccc1O			ELISA	12.5 µM	18%
COc1cc(O)cc(O)c1C(=O)c1ccc(O)c(O)c1			RT activity / radiometric	200 µg/mL	67.79%
CN(C)c1ccc(C2SCC(=O)N2Cc2ccco2)cc1			ELISA	10 µg/mL	33.36%
CCOc1cc(C)c(Cl)c2c1C(=O)C=CC2=O			RT activity	25 µg/mL	55%
COc1cc(-c2ccc(O)cc2)cc(OC)c1O			RT activity / radiometric	200 µg/mL	8.57%
O=C1CSC2(CCCCC2)N1Cc1ccco1			ELISA	10 µg/mL	0%
O=C1CN=C(c2ccc[nH]2)c2cc(Cl)ccc2N1			ELISA	250 µM	19%
Cc1ccc(CN2C(=O)CSC2c2c(Cl)cccc2Cl)o1			ELISA	10 µg/mL	49.8%
Cc1cc(O)c2c(c1)C(=O)C=CC2=O			RT activity	12.5 µg/mL	80%
Cc1cccc(N2C(=O)CSC2c2cccnc2)n1			ELISA	10 µg/mL	24.04%
COc1cc(C)c(Cl)c2c1C(=O)C=CC2=O			RT activity	100 µg/mL	94%

For reference, 2 entries again:

| structure | strain | changes | method | tested at | result |
|---|---|---|---|---|---|
| C=CC(C)(C)c1c2c(c(O)c3c(=O)c4ccc(OC)c(O)c4oc13)C=CC(C)(C)O2 |  |  | RT activity / radiometric | 200 µg/mL | 44.41% |
| CCN1c2ncccc2C=Cc2cccnc21 |  | RT-Y181C | nucleotide incorporation | 1 µM | 41% |

Inhibition is in % at the dose shown (toxicity tests: loss of growth or viability). Blank or dashed fields: not listed here.